Test system: CQ-resistant (W2) strain of P. falciparum
Assay: Antimalarial IC50, radiolabel incorporation in cultured P. falciparum, chloroquine-resistant strain

N6Demethylvoacamine
Ratio (S/R) (IC50 against sensitive strain divided by IC50 for resistant strain): 0.5 | IC50 (read-out: IC50 (10^−7 M) R, chloroquine-resistant strain of P. falciparum, in vitro, Table V): 960 nM

Source: patent US20070032460A1, “Use of voacamine and related compounds in the treatment of malaria” (priority 2005, published 2007)
